This note sets out measurements from paper PMC6941876, “White Spot Syndrome Virus Establishes a Novel IE1/JNK/c-Jun Positive Feedback Loop to Drive Replication”.

Construct, isoform or probe ends are uncertain for at least one entry. At least one verdict rests on a figure or table, not on a statement of the authors. Tags and fusion partners may be left off the protein sequences shown.

The data set deals with T1, rLvc-Jun (Litopenaeus vannamei) (UniProt A0A0A7W5M9).
T1 sequence (looked up, limits assumed): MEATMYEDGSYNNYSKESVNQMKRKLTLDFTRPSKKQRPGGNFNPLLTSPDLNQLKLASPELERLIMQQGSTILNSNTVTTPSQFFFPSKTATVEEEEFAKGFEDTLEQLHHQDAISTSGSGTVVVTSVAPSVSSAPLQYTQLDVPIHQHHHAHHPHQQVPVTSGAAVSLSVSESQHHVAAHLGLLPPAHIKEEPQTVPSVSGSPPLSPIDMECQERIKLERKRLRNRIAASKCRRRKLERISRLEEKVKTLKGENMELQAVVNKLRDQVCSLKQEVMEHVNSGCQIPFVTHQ
As to the kind of experiment: competition with a labelled probe. Particulars: unlabeled WT competitor reduces shift; EMSA with biotin-labeled probes; recombinant protein; protein details: GST tag removed with enterokinase; label: biotin (probe), unlabeled as competitor.

For “GGAATTTCCTTGTTACTCATTTATTCCTAGA (double strand) [IE1-AP-1-2 probe]”, the binding result is reported as “binds”.
